Pooled drug test results. Numbers come from NIAID ChemDB, via PubChem.

All rows: whole-cell or culture tests; organism: HIV-1; cells: MT-2; read-out: EC50

Blank or dashed fields: not listed here. Rows are shuffled and stem from different studies. Two numbers with a dash give a range or band. ECn is the concentration giving n% inhibition of infection, replication or growth.

Cc1ncc(-c2cnc(OCC[Si](C)(C)C)c(F)c2)c(N2CCC(C)(C)CC2)c1[C@H](OC(C)(C)C)C(=O)O ; strain: NL4-3 ; method: luminescence ; result: 0.0132 µM
CC(C)C1=C2C3CCC4[C@@]5(C)CC[C@H](OC(=O)CC(C)(C)C(=O)O)C(C)(C)C5CC[C@@]4(C)[C@]3(C)CC[C@@]2(NC(=O)N2CC[C@H](N)C2)CC1=O ; strain: IIIB ; method: RT activity ; conditions: 30% human serum ; result: <0.199 µM
Cc1nc2ccc(CNC(=O)C[C@@]34CC[C@]5(C)[C@H](CC[C@@H]6[C@@]7(C)CC[C@H](OC(=O)[C@H]8C[C@@H](C(=O)O)C8(C)C)C(C)(C)[C@@H]7CC[C@]65C)C3=C(C(C)C)C(=O)C4)cc2[nH]1 ; strain: 92HT599 ; method: p24 / ELISA ; result: <1 µM
CC#CCN(C(=O)[C@H](Cc1cc(F)cc(F)c1)NC(=O)c1cc(F)c(F)cc1C(=O)N[C@@H](Cc1cc(F)cc(F)c1)C(=O)N(CC#CC)c1ccc(OC)cc1)c1ccc(OC)cc1 ; strain: NL4-3 ; method: luciferase ; result: 6.83 µM
COCCOc1ccc(CNCC[C@@]23CC[C@]4(C)[C@H](CC[C@@H]5[C@@]6(C)CC[C@H](OC(=O)[C@H]7C[C@@H](C(=O)O)C7(C)C)C(C)(C)[C@@H]6CC[C@]54C)C2=C(C(C)C)C(=O)C3)cc1 ; strain: 92HT599 ; method: p24 / ELISA ; result: <1 µM
CC(C)C1=C2C3CCC4[C@@]5(C)CC[C@H](OC(=O)CC(C)(C)C(=O)O)C(C)(C)C5CC[C@@]4(C)[C@]3(C)CC[C@@]2(NC(=O)OCc2ccccc2)CC1=O ; strain: IIIB ; method: RT activity ; conditions: 30% human serum ; result: <0.199 µM
CC(C)C1=C2[C@H]3CC[C@@H]4[C@@]5(C)CC[C@H](OC(=O)[C@H]6C[C@@H](C(=O)O)C6(C)C)C(C)(C)[C@@H]5CC[C@@]4(C)[C@]3(C)CC[C@@]2([C@@H](O)CNC(=O)c2ccc(O[C@@H]3CCOC3)cc2)CC1=O ; strain: 92HT599 ; method: p24 / ELISA ; result: <1 µM
CC(C)C1=C2[C@H]3CC[C@@H]4[C@@]5(C)CC[C@H](OC(=O)CC(C)(C)C(=O)O)C(C)(C)[C@@H]5CC[C@@]4(C)[C@]3(C)CC[C@@]2(NC(=O)c2cncn2C)CC1=O ; strain: IIIB ; method: RT activity ; conditions: 30% human serum ; result: <0.199 µM
COc1ccc(N(C)C(=O)[C@H](Cc2ccccc2)NC(=O)NS(=O)(=O)N[C@@H](Cc2ccccc2)C(=O)N(C)c2cc(OC)c(OC)c(OC)c2)cc1 ; strain: NL4-3 ; method: luciferase ; result: 12.25 µM
CC(C)C1=C2[C@H]3CC[C@@H]4[C@@]5(C)CC[C@H](OC(=O)[C@H]6C[C@@H](C(=O)O)C6(C)C)C(C)(C)[C@@H]5CC[C@@]4(C)[C@]3(C)CC[C@@]2(CCNCC2(N)CC2)CC1=O ; strain: 92HT599 ; method: p24 / ELISA ; result: <1 µM
CN(C(=O)[C@H](Cc1cc(F)cc(F)c1)NC(=O)c1cccc(C(=O)N[C@@H](Cc2cc(F)cc(F)c2)C(=O)N(C)c2ccc3scnc3c2)c1Cl)c1ccc2scnc2c1 ; strain: NL4-3 ; method: luciferase ; result: 0.07 µM
[2H]C(CCCCN)(CNC[C@H](O)[C@@]12CC[C@]3(C)[C@H](CC[C@@H]4[C@@]5(C)CC[C@H](OC(=O)[C@H]6C[C@@H](C(=O)O)C6(C)C)C(C)(C)[C@@H]5CC[C@]43C)C1=C(C(C)C)C(=O)C2)NC(=O)c1ccc(Cl)cc1 ; strain: 92HT599 ; method: p24 / ELISA ; result: <1 µM
CC(C)C1=C2C3CCC4[C@@]5(C)CC[C@H](OC(=O)CC(C)(C)C(=O)O)C(C)(C)C5CC[C@@]4(C)[C@]3(C)CC[C@@]2(NC(=O)OC2CCSCC2)CC1=O ; strain: IIIB ; method: RT activity ; conditions: 30% human serum ; result: <0.199 µM
CCN(C(=O)[C@H](Cc1cc(F)cc(F)c1)NC(=O)NS(=O)(=O)N[C@@H](Cc1cc(F)cc(F)c1)C(=O)N(CC)c1ccc2scnc2c1)c1ccc2scnc2c1 ; strain: NL4-3 ; method: luciferase ; result: 0.06 µM
Cc1nn(C)cc1CCOc1ccc(-c2cnc(C)c([C@H](OC(C)(C)C)C(=O)O)c2N2CCC(C)(C)CC2)nc1 ; strain: NL4-3 ; method: luminescence ; result: 0.0062 µM
CC(C)C1=C2C3CCC4[C@@]5(C)CC[C@H](OC(=O)CC(C)(C)C(=O)O)C(C)(C)C5CC[C@@]4(C)[C@]3(C)CC[C@@]2(NC(=O)N2CCC(N)CC2)CC1=O ; strain: IIIB ; method: RT activity ; conditions: 30% human serum ; result: 0.2–0.999 µM
Cc1ncc(-c2cnc(OCCOc3ccc(Cl)cc3F)c(F)c2)c(N2CCC(C)(C)CC2)c1[C@H](OC(C)(C)C)C(=O)O ; strain: NL4-3 ; method: luminescence ; result: 0.0019 µM
CC(C)C1=C2[C@H]3CC[C@@H]4[C@@]5(C)CC[C@H](OC(=O)[C@H]6C[C@@H](C(=O)O)C6(C)C)C(C)(C)[C@@H]5CC[C@@]4(C)[C@]3(C)CC[C@@]2(CCNCC(C)(C)NC(=O)c2ccncc2)CC1=O ; strain: 92HT599 ; method: p24 / ELISA ; result: <1 µM
Cc1ncc(-c2cnc(OCCOc3c(F)cccc3Cl)c(F)c2)c(N2CCC(C)(C)CC2)c1[C@H](OC(C)(C)C)C(=O)O ; strain: NL4-3 ; method: luminescence ; result: 0.0011 µM
CN(C(=O)[C@H](Cc1cc(F)cc(F)c1)NC(=O)c1cccc(C(=O)N[C@@H](Cc2cc(F)cc(F)c2)C(=O)N(C)c2ccc3scnc3c2)c1)c1ccc2scnc2c1 ; strain: NL4-3 ; method: luciferase ; result: 0.01 µM
CC(C)C1=C2C3CCC4[C@@]5(C)CC[C@H](OC(=O)CC(C)(C)C(=O)O)C(C)(C)C5CC[C@@]4(C)[C@]3(C)CC[C@@]2(NC(=O)NCc2ccncc2)CC1=O ; strain: IIIB ; method: RT activity ; conditions: 30% human serum ; result: <0.199 µM
C[C@H](Cn1cnc2c(N)ncnc21)OCP(=O)(O)O ; strain: Clinical isolate ; mutations: D67N/T69N/K70R/K103N/M184V/T215F/K219Q ; method: recombinant virus assay ; result: 0.004 µM
CC(C)C1=C2[C@H]3CC[C@@H]4[C@@]5(C)CC[C@H](OC(=O)[C@H]6CCC[C@@H](C(=O)O)C6)C(C)(C)[C@@H]5CC[C@@]4(C)[C@]3(C)CC[C@@]2(NC(=O)OC(C)(C)C)CC1=O ; strain: IIIB ; method: RT activity ; conditions: 30% human serum ; result: <0.199 µM
C#C[C@@]1(CO)C=C[C@H](n2cc(C)c(=O)[nH]c2=O)O1 ; strain: Clinical isolate ; mutations: A62V/T69ins/V75I/A98G/K103S/G190A ; method: recombinant virus assay ; result: >46.2 µM
Cc1ncc(-c2ccc(OCCn3cc(Cl)cn3)cn2)c(N2CCC(C)(C)CC2)c1[C@H](OC(C)(C)C)C(=O)O ; strain: NL4-3 ; method: luminescence ; result: 0.0071 µM
CC(C)C1=C2[C@H]3CC[C@@H]4[C@@]5(C)CC[C@H](OC(=O)CC(C)(C)C(=O)O)C(C)(C)[C@@H]5CC[C@@]4(C)[C@]3(C)CC[C@@]2(NC(=O)CN2CCCC2)CC1=O ; strain: IIIB ; method: RT activity ; conditions: 30% human serum ; result: <0.199 µM
Cc1ncc(-c2ccc(N(C)CCOc3cc(F)cc(F)c3)nc2)c(N2CCC(C)(C)CC2)c1[C@H](OC(C)(C)C)C(=O)O ; strain: NL4-3 ; method: luminescence ; result: 0.0032 µM
Cc1ccc(C(=O)N[C@@]23CC[C@]4(C)[C@H](CC[C@@H]5[C@@]6(C)CC[C@H](OC(=O)CC(C)(C)C(=O)O)C(C)(C)[C@@H]6CC[C@]54C)C2=C(C(C)C)C(=O)C3)cn1 ; strain: IIIB ; method: RT activity ; conditions: 30% human serum ; result: <0.199 µM

Repeating the first 3 entries:

compound,strain,mutations,method,conditions,result
Cc1ncc(-c2cnc(OCC[Si](C)(C)C)c(F)c2)c(N2CCC(C)(C)CC2)c1[C@H](OC(C)(C)C)C(=O)O,NL4-3,-,luminescence,-,0.0132 µM
CC(C)C1=C2C3CCC4[C@@]5(C)CC[C@H](OC(=O)CC(C)(C)C(=O)O)C(C)(C)C5CC[C@@]4(C)[C@]3(C)CC[C@@]2(NC(=O)N2CC[C@H](N)C2)CC1=O,IIIB,-,RT activity,30% human serum,<0.199 µM
Cc1nc2ccc(CNC(=O)C[C@@]34CC[C@]5(C)[C@H](CC[C@@H]6[C@@]7(C)CC[C@H](OC(=O)[C@H]8C[C@@H](C(=O)O)C8(C)C)C(C)(C)[C@@H]7CC[C@]65C)C3=C(C(C)C)C(=O)C4)cc2[nH]1,92HT599,-,p24 / ELISA,-,<1 µM